Test results taken from US20120244144A1 (University of Texas, published 2012).

Assays:
Assay in all cases: Western blot
[1] = target: pertussis toxin subunit S5 (Bordetella pertussis, UniProt P04981 35-133)
[2] = target: pertussis toxin subunit S4 (Bordetella pertussis, UniProt P0A3R5 43-152)
[3] = target: pertussis toxin subunit S3 (Bordetella pertussis, UniProt P04979 29-227)
[4] = target: pertussis toxin subunit S2 (Bordetella pertussis, UniProt P04978 28-226)

Measured: binding result

B1: hu1B7 humanized single-chain antibody (scAb) (scFv, not shown: a dimerising Fc or GST)
scFv: DIQMTQSPSSLSASVGDRVTITCSASSSVSFMYWYQQKPGKAPKLLIYLTSNLPSGVPSRFSGFGSGTDYTLTISSLQPEDFATYYCQQWSSHPPTFGQGTKVEIKRTGGGGSGGGGSGGGGSGGGGSEVQLVESGGGLVQPGGSLRLSCAASGYKFTSYWMHWVRQAPGKGLEWVGNIFPGSGSTNYDEKFNSRFTISVDTSKNTAYLQMNSLRAEDTAVYYCTRWLSGAYFDYWGQGTLVTVSS
notes: also called WT hu1B7
no binding: [1] | [2] | [3]

B2: m1B7 murine single-chain antibody (scAb) (scFv, not shown: a dimerising Fc or GST)
scFv: DIQMTQSPALMSASPGEKVTMTCSASSSVSFMYWYQQKPRSSPKPWIYLTSNLPSGVPARFSGSGSGTSYSLTISSMEAEDAATYYCQQWSSHPPTFGSGTKLEIKRGGGGSGGGGSGGGGSGGGGSEVQLQQSGSELVRPGASVKLSCKASGYKFTSYWMHWVKQRPGQGLEWIGNIFPGSGSTNYDEKFNSKATLTVDTSSNTAYMQLSSLTSEDSAVYYCTRWLSGAYFDYWGQGTTLTVSSASGA
no binding: all assays above
